This is a selection; strong and weak results do not stand in their true shares. Results filed as inconclusive are left out. Active and inactive are the calls of the source. Calls come from the whole dose curve; tested in HEK293 cells.
Potency is the fitted concentration of half-maximal effect.

The experiment is described as follows: qHTS for Inhibitors of binding or entry into cells for Lassa Virus. Note: nearly all actives have a fitted effect of over 50% in size. The settings on record: Lassa virus pseudotype entry inhibition, cell reporter. For orientation: Quantitative high-throughput screening tests each substance at several concentrations.
As to `CC(O)C1C=CC=CC(=O)OC2CC3OC4C5OC5(C)C(O)CC4(COC(=O)C(O)C(C)CCO1)C2(C)C31CO1` (stereo not drawn), the Potency was active: 126 nM.

On to `CC1=CC2OC3CC4OC(=O)C=CC=CC(C(C)O)OCC(O)C5(C)OC5C(=O)OCC2(CC1O)C4(C)C31CO1` (stereo not drawn), for which the Potency is active: 224 nM.

With `CC(=O)O[C@H]1C[C@@H]2OC3C=C(C)CCC3(C)[C@@]1(C)[C@@]21CO1` (stereo partly drawn), the Potency was active: 631 nM.

The record behind these values is PubChem BioAssay AID540256 (National Center for Advancing Translational Sciences (NCATS), 2011).
